Results of unrelated studies side by side (data: NIAID ChemDB).

Shared fields: tests in culture; species: Candida albicans; read-out: MIC

Neighbouring rows are from separate reports.

compound | strain | result
Clc1ccc(C(Cc2ccc(Br)cc2)Cn2ccnc2)c(Cl)c1 |  | 10 µg/mL
COc1ccccc1N=c1ssnc1Cl | ATCC 10231 | 16 µg/mL
CCc1ccc(-c2nc3cc(NC(=O)c4ccc(C)cc4)ccc3o2)cc1 | RSKK 628 | 50 µg/mL
O=C(CN1CCCC1)N/N=C\C(=O)c1ccc(-c2ccccc2)cc1 |  | >50 µg/mL
Cn1cc(NC(=O)c2cc(NC(=O)c3cc(NC(=O)c4nsc(N5CCCCC5)c4Cl)cn3C)cn2C)cc1C(=O)NCCCNC1CCCCC1 | 38247 | 8 µg/mL
COc1ccc(C(=O)Nc2ccc3oc(-c4ccccc4)nc3c2)cc1OC | RSKK 628 | 25 µg/mL
CS(C)=O | G2-sensitive | 6.25 µg/mL
Clc1ccc(C(Cc2c(Cl)cccc2Cl)Cn2ccnc2)c(Cl)c1 |  | 100 µg/mL
O=C(CN1CCCC1)N/N=C\C(=O)c1ccc(Sc2ccccc2)cc1 |  | >50 µg/mL
Clc1ccc(C(Cc2ccccc2Cl)Cn2ccnc2)cc1 |  | 100 µg/mL
CCCCCCCCCCCOC[n+]1cccc(NCn2cnc3ccccc32)c1 | ATCC 10231 | 70 µM
CCOC(=O)c1c(C)[nH]c(O)c1/C=N/Nc1ccc([N+](=O)[O-])cc1[N+](=O)[O-] |  | >100 µg/mL
C=C1/C=C(\CO)[C@H](CC)OC(=O)[C@H](C)C(=O)C(O)(CO)C/C(C)=C/[C@@H](C)C1 | MY1055 | >200 µg/mL
COc1ccc(C(=O)Nc2ccc3oc(-c4ccccc4)nc3c2)cc1 | RSKK 628 | 50 µg/mL
O=C(NNC(=S)Nc1ccc(Cl)cc1Cl)c1cnccn1 | CNCM 1180-79 | >300 µg/mL
CCOC(=O)c1c(C)[nH]c(O)c1C=O |  | >100 µg/mL
C[C@@H](c1nc(-c2ccc(C#N)cc2)cs1)[C@](O)(Cn1cnnc1)c1ccc(F)cc1F | A28200 | ≤0.007 µg/mL
CCCCCCCCCCCCOCn1c[n+](CNC(=O)c2cccnc2)c2ccccc21 | ATCC 10231 | >1028 µM
Cn1cc(NC(=O)c2cc(NC(=O)c3cc(NC(=O)c4nsc(NCCCNc5ncccn5)c4Cl)cn3C)cn2C)cc1C(=O)NCCN1CCOCC1 | 38247 | >32 µg/mL
Oc1ccccc1Nc1ccc2nc3ccccc3nc2c1 |  | 64 µg/mL
COc1ccc(C2CC(=NO)CC(c3ccc(OC)cc3)N2OCCc2nc3ccccc3[nH]2)cc1 |  | 25 µg/mL
Cc1cc(COc2ccc(Oc3ccc(Cl)cc3)cc2)n(O)c(=O)c1 |  | 1–4 µg/mL
Oc1cccc2c(N=c3ssnc3Cl)cccc12 | ATCC 10231 | 16 µg/mL
CCC(C)n1ncn(-c2ccc(N3CCN(c4ccc(OC[C@H]5CO[C@](Cn6cncn6)(c6ccc(Cl)cc6Cl)O5)cc4)CC3)cc2)c1=O | 3 strains | 0.03–0.06 µg/mL
O=C(NNC(=S)Nc1ccc(Cl)cc1Cl)C1CCCCC1 | CNCM 1180-79 | >300 µg/mL
O=C(Cc1ccc(Br)cc1)Nc1ccc2oc(-c3ccccc3)nc2c1 | RSKK 628 | 25 µg/mL
CCCCCCCCCCCCOC[n+]1cccc(NCn2cnc3ccccc32)c1 | ATCC 10231 | 17.5 µM
ON=C1CC(c2ccccc2)N(OCCc2nc3ccccc3[nH]2)C(c2ccccc2)C1 |  | 200 µg/mL
Clc1ccc(C(Cc2ccc(Cl)cc2Cl)Cn2ccnc2)cc1 |  | 100 µg/mL
O=C(Nc1ccc2oc(-c3ccccc3)nc2c1)c1ccc(Cl)cc1 | RSKK 628 | 50 µg/mL
S=c1[nH]nc(-c2cnccn2)n1-c1ccc(Cl)cc1Cl | CNCM 1180-79 | >300 µg/mL
Cc1c(O)cccc1C(=O)N[C@@H](CSc1ccccc1)[C@H](O)CN1C[C@H]2CCCC[C@H]2C[C@H]1C(=O)NC(C)(C)C | I10A | >64 µg/mL
CCc1ccc(-c2nc3cc(NC(=O)Cc4ccc(Cl)cc4)ccc3o2)cc1 | RSKK 628 | 50 µg/mL
CCCCCCOC[n+]1cccc(NCn2nnc3ccccc32)c1 | ATCC 10231 | >1332 µM
CN(C)CCCNC(=O)c1cc(NC(=O)c2cc(NC(=O)c3cc(NC(=O)c4nsc(NCCN5CCNCC5)c4Cl)cn3C)cn2C)cn1C | 38247 | 4 µg/mL
CCOC(=O)C1=C(C)NC(=O)C1 |  | >100 µg/mL
O=C(CN1CCOCC1)N/N=C\C(=O)c1ccc(Oc2ccccc2)cc1 |  | >50 µg/mL
Clc1nssc1=Nc1ccc2ncccc2c1 | ATCC 10231 | 16 µg/mL
CCCCCCCCCOC[n+]1cccc(NCn2cnc3ccccc32)c1 | ATCC 10231 | 1200 µM
N=C(N)c1ccc(OC/C=C\COc2ccc(C(=N)N)cc2)cc1 | B311 | 3.12 µg/mL
ON=C1CC(c2ccc(Cl)cc2)N(OCCc2nc3ccccc3[nH]2)C(c2ccc(Cl)cc2)C1 |  | 12.5 µg/mL
Cc1ccc2cccc(N=c3ssnc3Cl)c2n1 | ATCC 10231 | 32 µg/mL
Clc1ccc(CC(Cn2ccnc2)c2ccccc2Cl)cc1 |  | 10 µg/mL
CCOC(=O)c1c(C)[nH]c(O)c1C=Nc1ccc([N+](=O)[O-])cc1 |  | >100 µg/mL
N=C(N)c1ccc(OC/C=C/COc2ccc(C(=N)N)cc2)cc1 | B311 | 6.25 µg/mL
CCN(CC)CC(=O)N/N=C\C(=O)c1ccc(-c2ccccc2)cc1 |  | >50 µg/mL
CCCCCCCCCCOC[n+]1cccc(NCn2cnc3ccccc32)c1 | ATCC 10231 | 290 µM
O=C(Nc1ccc2oc(-c3ccccc3)nc2c1)c1ccc(Br)cc1 | RSKK 628 | 50 µg/mL
CCCCCCCCC(O)[C@H]1O[C@H]1C(=O)NC1CC1 | G2-sensitive | 3.125 µg/mL
CCCOC[n+]1cccc(NCn2nnc3ccccc32)c1 | ATCC 10231 | >1499 µM
CCc1ccc(C(=O)Nc2ccc3oc(-c4ccccc4)nc3c2)cc1 | RSKK 628 | 100 µg/mL

Two numbers with a dash give a range or band. Blank or dashed fields: not listed here.